Consider two compounds from patent publication US9078928B2, “Conjugated molecules comprising a peptide derived from the CD4 receptor coupled to a polyanionic polypeptide for the treatment of AIDS” (Institut Pasteur, priority 2011, dated 2015).

The test system of assay [1] is clinical HIV-1 isolates. Put plainly: Antiviral assay on the series of clinical HIV-1 isolates, summary in text (Example 4). It is filed as cell-based. As to conditions: primary strains of Table 5. An excerpt: The antiviral assay was extended to a series of more clinically relevant primary strains, including 92UG029, SF162, 92US723, 96USHIPS4, 92HT599 and 98IN017.
Phytohemagglutinin (PHA)-P-activated PBMCs were infected either with the reference lymphotropic HIV-1/LAI strain (Barre-Sinoussi, et al., 1983) or with the reference macrophage-tropic HIV-1/Ba-L strain (Gartner, et al., 1986). These viruses were amplified in vitro with PHA-P-activated blood mononuclear cells. Viral stocks (including clinical isolates) were titrated using PHA-P-activated PBMCs, and 50% tissue culture infectious doses (TCID50) were calculated using Kärber's formula (Kärber, 1931). Viruses (125 TCID50) were incubated for 30 min with five concentrations (1:5 dilutions between 500 nM and 320 pM) of each of the molecules to be tested and added to 150 000 PBMCs (m.o.i.˜0.001). […] Viral replication was measured by quantifying reverse transcriptase (RT) activity in the cell culture supernatants using the Lenti RT Activity Kit (Cavisi) and AZT was used as reference anti-HIV-1 molecule. In parallel, cytotoxicity was evaluated on day 7 in uninfected PHA-P-activated PBMC using a colorimetric methyl-tetrazolium salt (MTS/PMS) assay (Promega). Experiments were performed in triplicate and 50, 70 and 90% effective doses (ED) were calculated using SoftMaxPro software.

The subject of assay [2] is X4-tropic HIV-1-LAI. Put plainly: Antiviral assay in PHA-P-activated PBMC, RT activity in supernatant at day 7 (Example 3). It is filed as cell-based. The note with it: mean of triplicate; for ED70 VIH-1-LAI(X4) Average: effective dose to inhibit 70% of HIV-1 replication; for ED90 VIH-1-LAI(X4) Average: effective dose to inhibit 90% of HIV-1 replication. The protocol:
The antiviral experiment have been performed as described in WO/2009/098147 and Nature Chemical Biology, 2009, 5(10), 743-748.
Briefly, the X4-tropic HIV-1-LAI (Barre-Sinoussi, Science 220, 868-71, 1983) or the R5-tropic HIV-1/Ba-L (Gartner et al, Science 233, 215-9, 1986) strains were amplified and titrated in vitro on Phytohemaglutinin-P (PHA-P)-activated peripheral blood mononuclear cells (PBMC). Tissue culture infectious doses were calculated using Kärber's formula (Kärber, Arch. Exp. Path. Pharmak. 162, 480-483, 1931). For the antiviral assay, PHA-P-activated PBMC were pre-treated for 30 minutes with six concentrations of each drug (1:5 dilutions between 0.5 μM and 160 pM) and infected with one hundred 50% tissue culture infectious doses (TCID50) of either the X4-tropic LAI or R5-tropic Ba-L strain. Drugs were maintained throughout the culture, and cell supernatants were collected at day 7 post-infection and stored at −20° C. Azidothymidine (AZT) was used in these experiments as an internal control. Viral replication was measured by quantifying reverse transcriptase (RT) activity in cell culture supernatants using the RetroSys HIV RT kit (Innovagen). In parallel, cytotoxicity of the samples was evaluated in uninfected PHA-P-activated PBMC by a methyltetrazolium salt (MTT) assay on day 7. Experiments were performed in triplicate and 50, 70 and 90% effective doses and cytotoxic doses were calculated using SoftMaxPro software.
PHA-P-activated PBMC were treated with each of the drug under investigation (1:5 dilutions between 0.5 μM and […]) and infected with 100 TCID50 of either HIV-1-LAI (X4 tropic) or /Ba-L (R5 tropic) strain. Molecules and viruses were maintained throughout the culture, and cell supernatants were collected at day 7 post-infection from which reverse transcriptase activity was quantified. Experiments were performed in triplicate and 50, 70 and 90% effective doses (ED), in nM (±S.D.) were calculated using SoftMaxPro software.

The target of assay [3] is T1, gp120 MN (X4) (Human immunodeficiency virus type 1 group M subtype B, UniProt P05877).
T1 construct: Two different gp120 were used, originating from a type X4 isolate (gp120 MN)
Format: binding, HIV. As to conditions: sCD4-coated surface (FIG. 5E). The protocol: Two different gp120 were used, originating from a type X4 isolate (gp120 MN) and a type R5 isolate (gp120 YU2). The capacity of different molecules to inhibit gp120 interactions with various receptors or co-receptors is measured by surface plasmonic resonance (Biacore).
In another set of experiments, sCD4 is coated on the surface, and gp120 alone (grey line) or pre-incubated with the compounds to be tested are injected onto these surfaces (FIGS. 5E and 5H). The interaction signal between gp120 and sCD4 is measured as a function of time.

Assay [4] deals with SHIVsf162p3. Format: cell-based. As to conditions: TZN-bl cells, Luc signal after 48 h. The protocol: TZN-bl cells that express Luceriferase under the control of the HIV LTR were used. These cells express high levels of CD4 and CCR5 and can be easily infected with HIV-1/-2 and SIV. Upon infection of these cells, viral Tat will induce transcription of Luciferase. The Luc signal is proportional to the amount of infection. We add a serial dilution of the compound to be tested (mCD4, mCD4-HS12 or mCD4-P3YSO3) to cells and subsequently add virus. The obtained Luc signal is read out after 48 h.
The test was carried out in duplicate.

Structures are written as SMILES. Read-outs that look alike come from different tables or passages of the source.

The EC50 is the concentration giving half of the maximal effect. Take `CC(C)C[C@@H]1NC(=O)CNC(=O)[C@H](CC(C)C)NC(=O)[C@H](CO)NC(=O)[C@H](CO)NC(=O)[C@@H]2CSSC[C@@H](C(=O)N[C@H](C(N)=O)C(C)C)NC(=O)[C@H](C)NC(=O)[C@@H]3CSSC[C@H](NC(=O)[C@H](CCCCN)NC(=O)[C@H](Cc4c[nH]cn4)NC(=O)[C@H](CC(C)C)NC(=O)[C@H](CC(N)=O)NC(=O)CCSSC[C@H](NC(=O)[C@H](CCCNC(=N)N)NC(=O)CNC(=O)[C@H](CC(C)C)NC1=O)C(=O)N[C@@H](C)C(=O)NCC(=O)N[C@@H](CO)C(=O)N[C@@H](Cc1ccc(-c4ccccc4)cc1)C(=O)N3)C(=O)N[C@@H](CCC(N)=O)C(=O)N[C@@H](CC(C)C)C(=O)N[C@@H](CCCNC(=N)N)C(=O)N2` [mCD4, reference compound]: the “antiviral activity against clinical isolates (in words)” value in assay [1] is “only poorly active or inactive”. Moreover, the “ED70 VIH-1-LAI(X4) Average” value in assay [2] was determined as 242 nM. For the same compound, the “ED90 VIH-1-LAI(X4) Average” value in assay [2] is reported as 317 nM. In assay [3], the “binding of gp120 MN in complex with the compound to sCD4-coated surface” value is given as “partially inhibited”. In addition, the EC50 in assay [4] (1st experiment, read-out: EC50 1st experiment) turned out to be 4620 nM; in assay [4] (2nd experiment, read-out: EC50 2nd experiment) it was 6130 nM.

As to `CC(C)C[C@@H]1NC(=O)CNC(=O)[C@H](CC(C)C)NC(=O)[C@H](CO)NC(=O)[C@H](CO)NC(=O)[C@@H]2CSSC[C@@H](C(=O)N[C@H](C(N)=O)C(C)C)NC(=O)[C@H](C)NC(=O)[C@@H]3CSSC[C@H](NC(=O)[C@H](CCCCNC(=O)CCOCCOCCNC(=O)CCN4C(=O)CC(SCCC(=O)NCCCC(=O)N[C@@H](CO)C(=O)N[C@@H](Cc5ccc(OS(=O)(=O)O)cc5)C(=O)N[C@@H](CC(=O)O)C(=O)N[C@@H](Cc5ccc(OS(=O)(=O)O)cc5)C(=O)N[C@@H](CO)C(=O)N[C@@H](Cc5ccc(OS(=O)(=O)O)cc5)C(=O)N[C@@H](CC(=O)O)C(=O)N[C@@H](Cc5ccc(OS(=O)(=O)O)cc5)C(=O)N[C@@H](CO)C(=O)N[C@@H](Cc5ccc(OS(=O)(=O)O)cc5)C(=O)N[C@@H](CC(=O)O)C(=O)N[C@@H](Cc5ccc(OS(=O)(=O)O)cc5)C(=O)N[C@@H](CO)C(=O)O)C4=O)NC(=O)[C@H](Cc4c[nH]cn4)NC(=O)[C@H](CC(C)C)NC(=O)[C@H](CC(N)=O)NC(=O)CCSSC[C@H](NC(=O)[C@H](CCCNC(=N)N)NC(=O)CNC(=O)[C@H](CC(C)C)NC1=O)C(=O)N[C@@H](C)C(=O)NCC(=O)N[C@@H](CO)C(=O)N[C@@H](Cc1ccc(-c4ccccc4)cc1)C(=O)N3)C(=O)N[C@@H](CCC(N)=O)C(=O)N[C@@H](CC(C)C)C(=O)N[C@@H](CCCNC(=N)N)C(=O)N2` (stereo partly drawn) [mCD4-P3YSO3], in assay [2], the “ED70 VIH-1-LAI(X4) Average” value stood at 0.6 nM and the “ED90 VIH-1-LAI(X4) Average” value was 1.1 nM. In assay [3], the “binding of gp120 MN in complex with the compound to sCD4-coated surface” value was “fully inhibited”.
